Laboratory results taken from patent publication US20220356229A1 (published 2022).
Residue numbers refer to the chain shown, from its start.

B1: mAb 851 (antibody, V domains shown)
VH: QITLKESGPTLVKPTQTLTLTCTFSGFSLSTNGVGMGWIRQPPGKALEWLALIYWDDDQFYSPSLKSRLTITRDTSKNQVVLTMTNMDPVDTATYYCAQAFYESFGFYSWGQGTLVTVSS
VL: NFMLTQPHSVSESPGKTVIISCTRSIGSIASNYVQWYQQRPGSAPTIVVFEDNERPSGVPDRFSGSIDRSSNSASLTISGLKTEDEADYYCQSYDGSSELVFGGGTKLTVLG
B2: mAb 1538 (antibody, V domains shown)
VH: EVQLLESGGGLVQPGGSLRLSCAASGFTFSSYAMSWVRQAPGKGLEWVSGISDSGGSTYYADYVKGRFTISRDNSKDTLYLQMNSLRAEDTAVYYCAKDRGNEYALTHYYYYAMDVWGQGTTVTVSS
VL: DIQMTQSPSSLSASVGDRVTITCRASQSISSYLNWYQQKPGKAPKLLIYAAYSLQSGVPSRFSGGGSGTDFTLTISSLQPEDFATYFCQQSYSTPITFGQGTRLEIKR
B3: mAb 923 (antibody, V domains shown)
VH: EVQLVESGGGVVRPGGSLRLSCAASGFIFDDYDMTWVRQAPGKGLEWVSGISWNGGNTGYADSVKGRFTISRDNAKNSLYLQMNSLRAEDTALYHCAVIMSPIPRYSGYDWAGGAFDIWGQGTMVTVSS
VL: SSELTQDPAVSVALGQTVRITCQGDSLRSYYASWYQQKPGQVPILVIYDKNNRPSGIPDRFSGSSSGNTASLTITGAQAEDEADYYCNSRDSSGNAVVFGGGTKLTVLG
B4: mAb 1444 (antibody, V domains shown)
VH: QVQLVQSGAEVKKPGASVKVSCKASGYTFTAYYMHWVRQAPGQGLEWMGWINPNSDDTNYAQKFQGRVTMTRDTSISTAYMELSRLRSDDTAVYYCAREEGVFTIGDRYFDLWGRGTLVSVSS
VL: QTVVTQEPSFSVSPGGTVTLTCGLSSGSVSTSYYPSWYQQTPGQAPRTLIYNTNTRSSGVPDRFSGSILGNKAALTITGAQADDESDYYCVLYMGSGIWVFGGGTKLTVLG
B5: mAb 1149 (antibody, V domains shown)
VH: QVQLVQSGAEVKKPGASVKVSCKASGYTFASYDINWVRQATGQGPEWMGWMIPNIGNTGYAQKFQGRVTMTRNTSISTAYMELSSLTSEDTAVYYCARVSRLFNDFGLRHEAPVDFWGQGTRVTVSS
VL: QSVLTQPPSVSGAPGQRVTISCTGSSSNIGAGYDVHWYQQLPGTAPKLLIYGYSSRPSGVPDRFSGSKSGTSASLAITGLQAEDEADYYCQSYDSSLSVLFGGGTKLTVLG
B6: mAb 896 (antibody, V domains shown)
VH: EVQLVESGGGVVQPGGSLRLSCAASGFTFDDYAMHWVRQVPGKGLEWVSLISGDGGSTYYADSVKGRFTISRDNSKNSLYVQMNSLRTEDTALYYCVKDRGGSGWDLNHYYYGMDVWGQGTTVTVSS
VL: DIQLTQSPSFLSASVGDRVTVTCRASQGISSYLAWYQQKPGKAPKLLIYAAYTLQSGVPSRFSGSGSETEFTLTISSLQPEDFATYYCQQVKSYPLTFGGGTKVEIKR
B7: mAb 936 (antibody, V domains shown)
VH: EVQLVESGGGLVQPGRSLTLSCAGSGFTFDDYAMHWVRQAPGKGLEWVSGISWNSGSIGYADSVKGRFTISRDNAKNSLYLQMNSLRAEDTALYYCAKDVSYDSSGYYNNAFDIWGQGTMVTVSS
VL: B6 VL with V21I, Y52S, E68G, V91L, K92Y, L96V, G100Q, K103R, V104L
B8: mAb 1075 (antibody, V domains shown)
VH: QVQLVQSGAEVKKPGASVKVSCKVSGYTLIELSMHWVRQAPGKGLEWMGGFDPEDGETIYAQKFQGRVTMTEDTSTDTAYMELSSLRSEDTAVYYCATEWAYYGSGSYLGYWGQGTLVTVSS
VL: EIVMTQSPATLSVSPGERATLSCRASQSVSSNLAWFQQKPGQAPRLLIYGASTRVTVIPARFSGSGSGTEFTLTISSLQSEDFAVYYCQQYNNWPRTFGQGTKVEIKR
B9: mAb 1037 (antibody, V domains shown)
VH: QITLKESGPTLVKPTQTLTLTCTFSGFSLSTSGVGVGWIRQPPGKALEWLALIYWDDDKRYSPSLKSRLTITKDTSKNQVVLTMTNMDPVDTATYYCAHHTITRINDYWGQGTLVTVSS
VL: QSALTQPASVSGSPGQSITISCTATSSDVGAYNYVSWYQQHPGKAPKLMIYDVSKRPSGVSNRFSGSKSGNTASLTISGLQAEDEADYYCSSYTSSSTVFGGGTKLTVLG
B10: mAb 1036 (antibody, V domains shown)
VH: QVQLVQSGAEVKKPGSSVKVSCKASGGTLSSYTISWVRQAPGQGLEWMGRIIPILGIADYAQKFQGRVTITADKSTTTAYMDLSSLGSEDTALYYCASAPKDWSSGFDYYYGMDVWGQGTMVTVSS
VL: DIVMTQTPLSLSVTPGQPASISCKSSQSLLNSDGKTYLYWYLQKAGQPPQLLIYEVSNRFSGVPERFSGSGSGTDFTLKISRVEAEDVGVYYCMQSVQLPPYTFGQGTKLEITR
B11: mAb 1139 (antibody, V domains shown)
VH: QVQLVQSGAEVKKPGASVKVSCKASGYTFSSYEINWVRQATGQGLEWMGRMTLNSGNTGYAQNFQGRVTMTRDTSISTAYMELSGLRSEDTAVYYCARMRSGWPTHGRPDDYWGQGTLVTVSS
VL: QSVLTQPPSASGTPGQRVTISCSGSNSNIGSYTVNWYQQLPGTAPKLLIYGNNQRPSGVPDRFSGSKSGTSASLAISGLQSEDEADYYCLAWDDSRNGLVFGGGTKLTVLG
B12: mAb 1015 (antibody, V domains shown)
VH: EVQLVESGGGLVQPGGSLRLSCAASGFTFSSYWMHWVRQAPGKGLVWVSHINSDGSSTSYADSVKGRFTISRDNAKNTLYLQMNSLRAEDTAVYYCARGLRYFDLDVWGQGTTVTVSS
VL: QSVLTQPPSVSEAPRQRVTISCSGSSSNIGNNAVNWYQQLPGKAPKLLIFYDDLLPSGVSDRFSGSKSGTSASLAISGLQSEDEADYYCAAWDDSLNGGVFGGGTKLTVLG
B13: mAb 1135 (antibody, V domains shown)
VH: EVQLVESGGGLVQPGRSLRLSCAASGLTFEDYAMHWVRQVPGKGLEWVSGISWNSGTIGYADSVKGRFIISRDNAKNSLYLQMRSLRAEDTALYYCAKDVGFGELLYYAFDIWGQGTMVTVSS
VL: QSALTQPASVSGSPGQSITISCTGTSSDVGGYNYVSWYQQHPGKAPKLMIYDVSNRPSGVSNRFSGSKSGNTASLTISGLQAEDEADYYCSSYTSSSTVVFGGGTKLTVLG
B14: antibody 297 (antibody, V domains shown)
VH: QVQLVESGGGVVQPGRSLRLSCAASGFTFSSYAMHWVRQAPGKGLEWVAVISYDGSNKYYADSVKGRFTISRDNSKNTLYLQMNSLRAEDTAVYYCARSFRGGYYYGMDVWGQGTTVTVSS
VL: DIQLTQSPSFLSASVGDRVTITCRASQGISSYLAWYQQKPGKAPKLLIYAASTLQSGVPSRFSGSGSGTEFTLTISSLQPEDFATYYCQQLNSYPLFTFGPGTKVDIK
B15: antibody 305 (antibody, V domains shown)
VH: QVQLVESGGGVVQPGRSLRLSCAASGFTFSSYAMHWVRQAPGKGLEWVAVISYDGSNKYYADSVKGRFTISRDNSKNTLYLQMNSLRAEDTAVYYCAREQTSYDYVWGTLGAYYYYGMDVWGQGTTVTVSS
VL: SSELTQDPAVSVALGQTVRITCQGDSLRSYYASWYQQKPGQAPVLVIYGKNNRPSGIPDRFSGSSSGNTASLTITGAQAEDEADYYCNSRDSSGNHLVFGGGTKLTVL
B16: antibody 307 (antibody, V domains shown)
VH: QVQLVESGGGVVQPGRSLRLSCAASGFTFSSYGMHWVRQAPGKGLEWVAVIWYDGSNKYYADSVKGRFTISRDNSKNTLYLQMNSLRAEDTAVYYCAKGYTWDYYYYGMDVWGQGTTVTVSS
VL: not shown
B17: antibody 308 (antibody, V domains shown)
VH: QLQLQESGPGLVKPSETLSLTCSVSGGSISSSSYHWGWIRQPPGKGLEWIGSIYYSGSTYYNPSLKSRVTISVDTSKNQFSLKLRSVTAADTAVYYCAGLRVVITFGGVIPKGGAFDIWGQGTMVTVSS
VL: B13 VL
B18: antibody 306 (antibody, V domains shown)
VH: QVQLVESGGGVVQPGRSLRLSCAASGFTFSSYGMHWVRQAPGKGLEWVAVIWYDGSNKYYADSVKGRFTISRDNSKNTLYLQMNSLRAEDTAVYYCAKDGGYCGGDCYSDGVDYWGQGTLVTVSS
VL: not shown
B19: antibody 290 (antibody, V domains shown)
VH: QVHLVQSGAEVKKPGASVKVSCAASGYTFNNYGVSWVRQAPGQGLEWMGWISASNGNTKYAQNLQGRVTMTTDTSTSTAYMELRSLRSDDTAVYYCARDLVGPTAPNYYYGMDVWGQGTAVTVSS
VL: QSVLTQPPSVSGAPGQRVTISCTGSSSSIGAGYDVHWYQQLPGTAPKLLIYANSNRPSGVPDRLSGSKSGTSASLAITGLQAEDEADYYCQSYDSSLSGYVFGTGTKVTVL

biological target: SARS-CoV-2 S (Wuhan-1, Genbank #: MN908947.3) (SARS-CoV-2, UniProt P0DTC2 14-1273); test: cell-based or functional assay

Going from B1 to B2, the “IC50 Wuhan-1 (pseudovirus neutralization, 293T-ACE2 cells, luciferase)” value falls from 2.26 µg/mL to 0.114 µg/mL (20-fold).

Going from B3 to B4, the “IC50 Wuhan-1 (pseudovirus neutralization, 293T-ACE2 cells, luciferase)” value falls from 0.093 µg/mL to 0.017 µg/mL (5.5-fold).

Compared with B5, B6 is 9.8-fold higher in “IC50 Wuhan-1 (pseudovirus neutralization, 293T-ACE2 cells, luciferase)” value: 0.016 µg/mL for the first, 0.156 µg/mL for the second.

B7 and B8 are within 1.5-fold of each other in “IC50 Wuhan-1 (pseudovirus neutralization, 293T-ACE2 cells, luciferase)” value: 0.051 µg/mL for the first, 0.039 µg/mL for the second.

Compared with B9, B10 is 1.6-fold higher in “IC50 Wuhan-1 (pseudovirus neutralization, 293T-ACE2 cells, luciferase)” value: 0.025 µg/mL for the first, 0.039 µg/mL for the second.

Going from B11 to B12, the “IC50 Wuhan-1 (pseudovirus neutralization, 293T-ACE2 cells, luciferase)” value falls from 0.018 µg/mL to 0.011 µg/mL (1.6-fold).

With B13 the “IC50 Wuhan-1 (pseudovirus neutralization, 293T-ACE2 cells, luciferase)” value was 0.05 µg/mL.

biological target: T1, SARS-CoV-2 Spike (S) protein, wild type, full length (SARS-CoV-2, UniProt P0DTC2 14-1208); test: bead assay, flow cytometry

Compared with B14, B15 is lower in “bead binding signal (fold over isotype)” value: 926 fold over isotype for the first, 470 fold over isotype for the second.

Compared with B16, B17 is lower in “bead binding signal (fold over isotype)” value: 1190 fold over isotype for the first, 758 fold over isotype for the second.

biological target: T1, SARS-CoV-2 Spike (S) protein, wild …; test: bead assay, flow cytometry; remark: another data set of the same source

First: B14
Second: B15
The “bead binding signal (fold over isotype)” value of the first is higher: 596 fold over isotype for the first, 130 fold over isotype for the second.

Compared with B16, B17 is lower in “bead binding signal (fold over isotype)” value: 573 fold over isotype for the first, 398 fold over isotype for the second.

biological target: T1, SARS-CoV-2 Spike (S) protein, wild …; test: bead assay, flow cytometry; remark: another data set of the same source

Compared with B14, B18 is lower in “bead binding signal (fold over isotype)” value: 513 fold over isotype for the first, 338 fold over isotype for the second.

First: B15
Second: B16
The “bead binding signal (fold over isotype)” value of the first is lower: 449 fold over isotype for the first, 754 fold over isotype for the second.

For B17, the “bead binding signal (fold over isotype)” value was 346 fold over isotype.

B19: no binding.
